{
  "sequences": {"note": "Sequences of proteins named here, by UniProt entry; tags and fusion partners are left off.", "UniProt P51681, whole entry": "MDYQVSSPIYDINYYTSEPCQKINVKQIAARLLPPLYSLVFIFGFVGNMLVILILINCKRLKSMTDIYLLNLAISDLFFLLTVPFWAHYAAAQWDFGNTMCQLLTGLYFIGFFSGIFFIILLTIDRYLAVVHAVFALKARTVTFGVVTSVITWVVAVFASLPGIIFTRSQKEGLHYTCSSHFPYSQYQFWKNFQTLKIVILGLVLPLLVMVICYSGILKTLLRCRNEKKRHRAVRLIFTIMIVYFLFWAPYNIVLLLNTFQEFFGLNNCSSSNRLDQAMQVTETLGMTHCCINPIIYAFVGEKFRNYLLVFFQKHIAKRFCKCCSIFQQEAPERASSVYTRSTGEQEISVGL"},
  "source": "patent US20170049884A1",
  "about": "“USE OF ANTI-CCR5 ANTIBODIES IN GRAFT VERSUS HOST DISEASE” (CytoDyn Inc., priority 2014, published 2017)",
  "molecules": {"B1": {"name": "PRO 140: humanized IgG4,kappa anti-CCR5 mAb; humanized version of the murine mAb PA14 (antibody, chains of the INN, looked up, V domains shown)", "VH": "EVQLVESGGGLVKPGGSLRLSCAASGYTFSNYWIGWVRQAPGKGLEWIGDIYPGGNYIRNNEKFKDKTTLSADTSKNTAYLQMNSLKTEDTAVYYCGSSFGSNYVFAWFTYWGQGTLVTVSS", "VL": "DIVMTQSPLSLPVTPGEPASISCRSSQRLLSSYGHTYLHWYLQKPGQSPQLLIYEVSNRFSGVPDRFSGSGSGTDFTLKISRVEAEDVGVYYCSQSTHVPLTFGQGTKVEIK"}},
  "target": "CCR5 (Homo sapiens, UniProt P51681)",
  "test": "Competition binding: inhibition of 3H-UK-427,857 binding to CEM.NKR-CCR5 cells",
  "set-up": "host or cells: CEM.NKR-CCR5 (transduced human T cell leukemia line)",
  "conditions": "higher than the antiviral IC50 of PRO 140",
  "data": [
    {"molecule": "B1", "values": [
      {"measurement": "EC50 relative to antiviral IC50", "result": "5-10 fold"}
    ]}
  ]
}
